PubChem BioAssay AID1259414, Drosophila RNAi Screening Center | 2018
In all, the deposit lists about 24,000 reagents; shown is an unselected part of those that have a named target and a result. In the full data, about 1,210 (5%) are marked active. 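Inactive calls also include excluded dsRNAs with several or no targets, genes unexpressed in JW18, and well A1, regardless of score.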 Entries without a mark were called inactive. Reagents against one gene are numbered here.

Test: 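Fly genes that alter Wolbachia amount inside host cells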 (primary screen)
System: Drosophila JW18 cells infected with Wolbachia
Reagents: long dsRNA against Drosophila genes, 0.25 µg dsRNA per well of a 384-well plate
Timing: 5 days
Conditions: cells persistently infected with Wolbachia before knock-down; no added drug
Detection: 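Automated imaging of bacterial rRNA staining divided by host cell count, reported as plate-normalised robust z-score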
Reading the numbers: Wolbachia per cell robust z: higher = more Wolbachia per host cell than the plate typical
Active means: 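Hit when robust z is 1.5 or more, or -1.5 or less, in at least two of three replicates; excludes dsRNAs with several or no targets, genes not expressed in JW18 and well A1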

target gene | reagent no. | Wolbachia per cell robust z, rep 1 | Wolbachia per cell robust z, rep 2 | Wolbachia per cell robust z, rep 3
CG8026 | 1 | 0.359 | 0.225 | -0.128
CG8026 | 2 | 0.901 | -0.231 | 0.675
Irk2 | 1 | -0.727 | -1.37 | -0.953
slf | 1 | -0.784 | 0.0725 | -0.624
slf | 2 | 0.693 | 1.31 | 0.666
CG9727 | 1 | -0.555 | -0.711 | -0.363
CG9727 | 2 | 0.0267 | -0.449 | -0.839
I-3 | 1 | -2.38 | -2.16 | -2.73
Ir11a | 1 | 0.431 | -0.0934 | 0.295
CG14770 | 1 | 1.23 | -0.375 | -2.8
TrpRS | 1 | -0.479 | -0.0253 | 0.809
betaTub56D | 1 | 1.79 | 0.529 | 1.31
betaTub56D | 2 | 0.994 | 1.21 | 1.81
CG9451 | 1 | -0.67 | -0.494 | -0.466
CG9451 | 2 | -0.0807 | 0.371 | -0.852
CG9451 | 3 | -0.314 | 0.403 | -0.194
CG9776 | 1 | 0.0709 | -0.0696 | -1.07
CG15047 | 1 | 0.0407 | 0.524 | 0.344
CG15047 | 2 | -0.184 | 0.204 | 0.903
CG15047 | 3 | -0.364 | -1.6 | -0.164
Sfmbt | 1 | -1.39 | 0.603 | -0.13
Sfmbt | 2 | -0.576 | 0.483 | 0.557
rdx | 1 | 0.0769 | 0.134 | 0.0642
rdx | 2 | 0.81 | 0.713 | 0.206
rdx | 3 | -0.476 | -0.668 | -0.324
rdx | 4 | -0.823 | -0.854 | -0.737
Art6 | 1 | -0.315 | -5.95 | -0.327
elm | 1 | -2.05 | 0.258 | 0.108
Bem46 | 1 | -1.74 (active) | 0.873 | -2.68

Next part; the last 6 above are carried over.
target gene | reagent no. | Wolbachia per cell robust z, rep 1 | Wolbachia per cell robust z, rep 2 | Wolbachia per cell robust z, rep 3
rdx | 2 | 0.81 | 0.713 | 0.206
rdx | 3 | -0.476 | -0.668 | -0.324
rdx | 4 | -0.823 | -0.854 | -0.737
Art6 | 1 | -0.315 | -5.95 | -0.327
elm | 1 | -2.05 | 0.258 | 0.108
Bem46 | 1 | -1.74 (active) | 0.873 | -2.68
mdlc | 1 | 1.56 (active) | 2.01 | -0.624
mdlc | 2 | 0.482 | 0.999 | 1.18
CG31933 | 1 | -0.55 | 0.21 | -0.851
Shaw | 1 | 0.0663 | -0.816 | -1.09
Shaw | 2 | -2.09 | -4.77 | -3.11
Shaw | 3 | 0.742 | -0.377 | -1.21
Cdc27 | 1 | 2.42 (active) | 2.67 | 4.39
Cdc27 | 2 | 4.63 (active) | 2.65 | 2.16
Cdc27 | 3 | 5.79 (active) | 3.35 | 5.28
tst | 1 | 0.217 | 0.00961 | -0.279
Cypl | 1 | 0.911 | 1.22 | -2.11
Cypl | 2 | 0.344 | -1.27 | -0.855
kug | 1 | 0.0592 | -0.517 | -4.29
RpS2 | 1 | 3.94 (active) | 3.31 | 3.49
RpS2 | 2 | 2.55 (active) | 3.12 | 4.78
CG43312 | 1 | 0.547 | -2.7 | 1.27
NO66 | 1 | -0.392 | -0.847 | -0.155
CG31807 | 1 | 0.421 | -0.769 | -9.16
AANATL3 | 1 | 0.103 | -0.0599 | -1.21
Gbeta5 | 1 | 0.472 | 1.08 | 0.683
CG7997 | 1 | -0.248 | 0.531 | 0.223
CG7997 | 2 | -0.515 | -1.29 | -0.159
CG6356 | 1 | 0.9 | -2.12 | 0.143
Mgat4b | 1 | -0.136 | 0.229 | 0.425
Mgat4b | 2 | 0.618 | -0.134 | -0.633
CG15641 | 1 | -0.917 | 0.822 | 1.2
CG14668 | 1 | 0.00194 | 0.185 | 1.09
Spn85F | 1 | -1.52 | -1.73 | -0.257
Kmn1 | 1 | 1.75 | 1.04 | 0.317
Kmn1 | 2 | -0.257 | -0.371 | -0.622
CG32437 | 1 | -0.92 | -0.277 | 0.294
CG32437 | 2 | -2.8 | -0.401 | 1.07
CG32437 | 3 | 0.722 | 1.32 | 1.17
CG11170 | 1 | -5.83 | 0.5 | 0.424
CG11170 | 2 | -1.06 | -0.358 | 1.16
CG4440 | 1 | -0.225 | -0.64 | -0.634
CG4440 | 2 | 0.646 | -1.79 | -2.1
Mlp84B | 1 | 0.203 | 0.0975 | -1.16
SLC22A | 1 | 0.0669 | 0.239 | -0.0332
SLC22A | 2 | -0.524 | 0.504 | -0.744
CG32066 | 1 | 0.504 | -0.426 | 0.279
CG32066 | 2 | -0.0477 | -0.486 | 0.423
Ppn | 1 | -4.8 (active) | 0.633 | -3.69
Ppn | 2 | -0.915 | 0.195 | 0.638
pen-2 | 1 | 2.24 | 0.396 | 1.13
CG33523 | 1 | 0.00501 | -1.57 | 0.252
CG33523 | 2 | 0.458 | 0.267 | -0.675
Vha14-2 | 1 | 0.291 | 0.282 | -6.19
inaE | 1 | -2.24 | -0.453 | -0.143
inaE | 2 | -0.258 | -6.7 | -1.46
inaE | 3 | 0.218 | 0.0509 | 0.759
inaE | 4 | -1.27 | -1.22 | -3.21
PDCD-5 | 1 | -2.53 | -1.12 | 0.0169
Cyp4ac3 | 1 | -0.0464 | -2.75 | 0.83
CG18636 | 1 | -0.539 | -0.522 | -3.03
CG18636 | 2 | -2.67 | -0.501 | 0.754
sofe | 1 | -0.645 | -1.26 | -0.965
Dhx15 | 1 | 1.06 | 1.12 | 0.441
Dhx15 | 2 | 1.13 | 1.32 | 1.51
